Tested on: not listed separately
Assay: in vitro
Details: African green monkey

**Q.** With `c1ccc(-c2ccc(C(c3ccccc3)n3ccnc3)cc2)cc1` (stereo not drawn) [Bifonazole] as the molecule, how does the CC50 read?
**A.** The CC50 was 14.1 µM.

**Q.** For `CCCCCCCCn1cc(CC(N)=O)c2cc(-c3cccc(C)c3)ccc21` [Cysmethynil], which CC50 at 72 h is on record?
**A.** Its CC50 at 72 h is 14.1 µM.

**Q.** Which CC50 at 72 h does the source give for `CN(C)[C@@H](CCOc1cccc2ccccc12)c1ccccc1` [Dapoxetine] here?
**A.** The CC50 at 72 h was 14.1 µM.

**Q.** For `CCCCN(CCCC)CCC(O)c1cc2c(Cl)cc(Cl)cc2c2cc(C(F)(F)F)ccc12` (stereo not drawn) [Halofantrine], which CC50 is on record?
**A.** Its CC50 is 14.1 µM.

Tested on: Vero E6 cells
Assay: not given
Details: read-out: Cytotox CC50; cytotoxicity counter-assay, Vero E6 cells without virus

**Q.** For 10058-F4, which CC50 is on record?
**A.** The CC50 was 12.6 µM.

**Q.** For `CCCCCCCCCCCCCCCc1cccc(O)c1C(=O)O` [Anacardic Acid], which CC50 is on record?
**A.** Its CC50 is 14.1 µM.

**Q.** For `CC(C)c1onc(-c2c(Cl)cccc2Cl)c1COc1ccc(/C=C/c2cccc(C(=O)O)c2)c(Cl)c1` [GW-4064X], which CC50 is on record?
**A.** Its CC50 is 14.1 µM.

**Q.** With `CCCCCCCc1ccc(CCc2cccc(O)c2C(=O)O)cc1` [MG-149] as the molecule, how does the CC50 read?
**A.** Its CC50 is 14.1 µM.

**Q.** Which CC50 does the source give for `Cn1cc(-c2ccncc2)c(-c2ccc(OCc3ccc4ccccc4n3)cc2)n1` [MP-10] here?
**A.** The CC50 was 14.1 µM.

**Q.** For `COc1ccc(C(C)(C)C)cc1CN[C@H]1C2CCN(CC2)[C@H]1C(c1ccccc1)c1ccccc1` [Maropitant], which CC50 is on record?
**A.** Its CC50 is 14.1 µM.

**Q.** With `CCC(C)CNCC(=O)N1CCc2sccc2C1COc1cccc(C)c1` (stereo not drawn) [RU-SKI 43] as the molecule, how does the CC50 read?
**A.** Its CC50 is 14.1 µM.

**Q.** With HBX 19818 as the molecule, how does the CC50 read?
**A.** The CC50 was 12.6 µM.

Source: publication PMC7942396, “Drug Repurposing Screen for Compounds Inhibiting the Cytopathic Effect of SARS-CoV-2” (Frontiers in Pharmacology, 2021)
